Measurements reported in PubChem BioAssay AID624099 (ICCB-Longwood, 2012).
In all, the deposit lists about 21,000 reagents; below is a part drawn at random. Of all reagents, 497 (2.4%) were called active. 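Higher z means weaker E2 silencing; only reporter increases were scored, and knock-downs that hurt cell survival may mask genuine repressor factors.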 Entries without a mark were called inactive.

Screen: 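Knock-downs relieving repression by E2 of an HPV18 LCR luciferase reporter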 (primary screen)
System: human C33A cervical carcinoma cells (HPV-negative) stably expressing BPV1 E2 and an HPV18 LCR luciferase reporter
Reagent: siRNA pool against human genes, 40 nM
Duration: 72 h
Measured: 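Per-well luciferase luminescence, z-scored on each plate against the plate mean and SD with control wells left out, then averaged across three replicate plates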
Reading the numbers: mean z-score and z-score: higher = stronger reporter signal, weaker E2 silencing
Hit rule: 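Hit if mean z-score reaches 2 and two or more of three replicate z-scores also reach 2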

target gene | mean z-score | z-score, replicate A | z-score, replicate B | z-score, replicate C
RHOV (ras homolog family member V) | 0.29 | 0.18 | 0.31 | 0.38
SMTN (smoothelin) | 0.37 | 0.35 | 0.59 | 0.18
GNAQ (G protein subunit alpha q) | -0.22 | 0.01 | -0.26 | -0.41
CCDC33 (coiled-coil domain containing 33) | -2.37 | -2.09 | -2.36 | -2.66
LINGO2 (leucine rich repeat and Ig domain containing 2) | 1.17 | 1.7 | 0.41 | 1.41
CAPZA1 (capping actin protein of muscle Z-line subunit alpha 1) | -0.2 | -0.44 | -0.19 | 0.01
MRPL40 (mitochondrial ribosomal protein L40) | 0.74 | 0.7 | 0.55 | 0.98
DCAF8L1 (DDB1 and CUL4 associated factor 8 like 1) | 1.1 | 1.14 | 0.83 | 1.34
IL11 (interleukin 11) | 0.99 | 1 | 1.09 | 0.88
ZBED8L (ZBED8 like) | 0.54 | 0.04 | 1.13 | 0.45
FAM218A (family with sequence similarity 218 member A) | 1.91 | 1.55 | 1.83 | 2.36
WARS2 (tryptophanyl tRNA synthetase 2, mitochondrial) | -1.56 | -1.61 | -1.48 | -1.6
PRAG1 (PEAK1 related, kinase-activating pseudokinase 1) | 0.41 | 0.76 | 0.04 | 0.43
OPN4 (opsin 4) | -1.51 | -1.5 | -1.49 | -1.53
DHX32 (DEAH-box helicase 32 (putative)) | 0.73 | 0.29 | -0.11 | 2.02
SH3TC1 (SH3 domain and tetratricopeptide repeats 1) | -0.06 | -0.01 | 0.01 | -0.18
NUP98 (nucleoporin 98 and 96 precursor) | -0.51 | -0.74 | -0.45 | -0.35
RPL29P31 (ribosomal protein L29 pseudogene 31) | -0.08 | 0.11 | -0.5 | 0.14
RNF128 (ring finger protein 128) | -0.61 | -1.02 | -0.73 | -0.07
NRIP2 (nuclear receptor interacting protein 2) | 0.04 | 0.29 | -0.23 | 0.08
HDC (histidine decarboxylase) | -1.09 | -1.25 | -1.04 | -0.99
FAR1 (fatty acyl-CoA reductase 1) | -0.97 | -1.24 | -0.86 | -0.81
TOMM70 (translocase of outer mitochondrial membrane 70) | 2 | 2.08 | 1.88 | 2.03
RPLP0P6 (ribosomal protein lateral stalk subunit P0 pseudogene 6) | -0.16 | -0.5 | 0.16 | -0.14
PACS2 (phosphofurin acidic cluster sorting protein 2) | 0.45 | 0.78 | 0.03 | 0.56
NUP205 (nucleoporin 205) | -0.56 | -0.29 | -0.53 | -0.87
ZCWPW1 (zinc finger CW-type and PWWP domain containing 1) | -0.22 | -0.54 | 0.05 | -0.17
KCNK12 (potassium two pore domain channel subfamily K member 12) | -0.85 | -0.7 | -1.1 | -0.77
TRIM61 (tripartite motif containing 61) | 0.03 | -0.02 | 0.33 | -0.23
SLC4A9 | -0.93 | -0.79 | -0.74 | -1.25
MARF1 (meiosis regulator and mRNA stability factor 1) | -0.34 | -0.2 | -0.46 | -0.35
LOC201484 (retired record) | -0.67 | -0.57 | -1.06 | -0.37
GRSF1 (G-rich RNA sequence binding factor 1) | 0.44 | 0.45 | 0.42 | 0.43
PINLYP (phospholipase A2 inhibitor and LY6/PLAUR domain containing) | 1.52 | 1.49 | 1.48 | 1.6
ABHD18 (abhydrolase domain containing 18) | 0.55 | 0.54 | 0.72 | 0.38
PPIF (peptidylprolyl isomerase F) | -0.11 | -0.58 | 0.98 | -0.74
C4orf33 (chromosome 4 open reading frame 33) | 0.64 | 0.07 | 0.78 | 1.07
IGLL1 (immunoglobulin lambda like polypeptide 1) | -0.34 | -0.3 | -0.37 | -0.35
TMEM54 (transmembrane protein 54) | 0.99 | 1.01 | 0.84 | 1.11
TTC39B (tetratricopeptide repeat domain 39B) | -1.48 | -1.03 | -1.63 | -1.77
DLG1 (discs large MAGUK scaffold protein 1) | 2.22 (active) | 2.56 | 2.66 | 1.44
OPN1LW (opsin 1, long wave sensitive) | 0.66 | 0.7 | 0.57 | 0.7
LINC00635 (long independently transcribed non-coding RNA 635) | -0.12 | -0.61 | 0.3 | -0.06
VEGFB (vascular endothelial growth factor B) | -0.09 | -0.19 | -0.16 | 0.08
IGSF9 (immunoglobulin superfamily member 9) | 1.17 | 1.9 | 0.84 | 0.78
WSB1 (WD repeat and SOCS box containing 1) | -1.31 | -1.35 | -1.22 | -1.35
PTPRT (protein tyrosine phosphatase receptor type T) | -0.22 | -0.39 | -0.09 | -0.18
DNPEP (aspartyl aminopeptidase) | 1.22 | 1.31 | 1.2 | 1.15
SUCO (SUN domain containing ossification factor) | 0.01 | 0.39 | -0.48 | 0.11
PYM1 (PYM1 exon junction complex associated factor) | -1.61 | -1.68 | -1.64 | -1.52
SDR39U1 (short chain dehydrogenase/reductase family 39U member 1) | -0.18 | -0.08 | -0.32 | -0.13
STC1 (stanniocalcin 1) | 0.44 | 0.61 | 0.3 | 0.4
ARHGAP21 (Rho GTPase activating protein 21) | -0.68 | -0.49 | -0.74 | -0.8
UCK2 (uridine-cytidine kinase 2) | -0.7 | -1.1 | -0.7 | -0.3
MYO9A (myosin IXA) | 0.16 | -0.29 | 0.41 | 0.37
CLDN5 (claudin 5) | -0.18 | -0.14 | -0.23 | -0.18
LARP7 (La ribonucleoprotein 7, transcriptional regulator) | 1.57 | 2.09 | 1.56 | 1.05

Quoted from the entries so far, 3 entries:
target gene | mean z-score | z-score, replicate A | z-score, replicate B | z-score, replicate C
DHX32 (DEAH-box helicase 32 (putative)) | 0.73 | 0.29 | -0.11 | 2.02
SH3TC1 (SH3 domain and tetratricopeptide repeats 1) | -0.06 | -0.01 | 0.01 | -0.18
NUP98 (nucleoporin 98 and 96 precursor) | -0.51 | -0.74 | -0.45 | -0.35
